According to patent publication US9907812B2, “Conjugate-based antifungal and antibacterial prodrugs” (VYOME BIOSCIENCES PVT. LTD., priority 2011, dated 2018):

Tests used:
[1] = system: Malassezia furfur (MTCC 1374); test: MIC by agar plate dilution (Leeming Notman medium); format: cell-based; conditions: M. furfur, MIC = concentration that inhibits 100% growth
[2] = system: Malassezia furfur (MTCC 1374); test: Time kill kinetics assay; conditions: 0.25 μg/ml, 4 hr (FIG. 30); also valid for 0.125 to 1.0 μg/ml
[3] = system: lipases secreted by Malassezia furfur (MTCC 1374); test: Lipase mediated hydrolysis of ketoconazole conjugates, HPLC analysis; conditions: SDB with olive oil, Day 3
[4] = 125 μg/ml prodrug, no innoculum
[5] = 125 μg/ml prodrug, with M. furfur innoculum
[6] = 250 μg/ml prodrug, no innoculum
[7] = 250 μg/ml prodrug, with M. furfur innoculum

## Ketoconazole-methylene-oleate
[1]
  MIC: 1.88 to 7.5 µM

## Ketoconazole-methylene-linolate
[1]
  MIC: 7.5 µM

## Ketoconazole-methylene-undecylenate
[1]
  MIC: 3.7 to 7.5 µM

## Ketoconazole-methylene-caprylate
[1]
  MIC: 0.94 to 3.7 µM
[2]
  speed of action in time kill assay compared to ketoconazole: faster acting
[3]; [4]
  ketoconazole (Keto) formed from prodrug, HPLC: Keto = 22.8%
  remaining prodrug, HPLC: KMC = 77.1%
[3]; [5]
  ketoconazole (Keto) formed from prodrug, HPLC: Keto = 78.0%
  remaining prodrug, HPLC: KMC = 21.0%
[3]; [6]
  ketoconazole (Keto) formed from prodrug, HPLC: Keto = 20.47%
  remaining prodrug, HPLC: KMC = 79.5%
[3]; [7]
  ketoconazole (Keto) formed from prodrug, HPLC: Keto = 71.7%
  remaining prodrug, HPLC: KMC = 28.2%

## Ketoconazole-methylene-palmitate
[1]
  MIC: 1.88 µM

## Ketoconazole-methylene-laureate
[1]
  MIC: 1.88 to 3.7 µM
